# In ChEMBL document CHEMBL1146972, “Specific inhibitors of Plasmodium falciparum thioredoxin reductase as potential antimalarial agents” (Bioorg Med Chem Lett, 2006):
# Chains of the proteins cited; added tags and fusions are not shown. Lines headed by an entry give the natural chain unless they say otherwise; changes in a name come on top.
# UniProt O15770: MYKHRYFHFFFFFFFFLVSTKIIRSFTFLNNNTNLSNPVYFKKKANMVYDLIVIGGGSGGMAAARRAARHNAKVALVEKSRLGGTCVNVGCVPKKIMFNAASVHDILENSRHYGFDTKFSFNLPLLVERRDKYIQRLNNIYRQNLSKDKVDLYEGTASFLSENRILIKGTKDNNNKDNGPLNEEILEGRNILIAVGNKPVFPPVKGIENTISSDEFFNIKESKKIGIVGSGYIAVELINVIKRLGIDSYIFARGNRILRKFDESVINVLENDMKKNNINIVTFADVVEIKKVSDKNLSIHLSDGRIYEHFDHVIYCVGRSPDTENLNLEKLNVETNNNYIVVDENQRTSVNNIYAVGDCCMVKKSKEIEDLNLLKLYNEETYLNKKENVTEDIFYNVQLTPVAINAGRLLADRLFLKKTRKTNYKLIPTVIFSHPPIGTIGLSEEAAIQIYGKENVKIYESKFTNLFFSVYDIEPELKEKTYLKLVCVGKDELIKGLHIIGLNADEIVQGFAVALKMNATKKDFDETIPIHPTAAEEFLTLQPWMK
# Target: Glutathione reductase (Plasmodium falciparum 3D7) (UniProt O15770)
# Assay: Inhibition of Plasmodium falciparum GR at 0.5 uM
smiles,measurement,value
O=[N+]([O-])c1ccc(Sc2ccc([N+](=O)[O-])cc2[N+](=O)[O-])c([N+](=O)[O-])c1,inhibition,45%
